Results of unrelated studies side by side (data: NIAID ChemDB).

Shared fields: whole-cell or culture tests; organism: Candida tropicalis; endpoint: MIC80

A number after MIC or MFC names an inhibition level or a share of isolates. Blank or dashed fields: not listed here. Rows are shuffled and stem from different studies.

Cc1cccc(C)c1N1C(=O)C=CC1=O ; strain: KKP 334 ; read by: broth dilution ; result: 2 µg/mL
O=C(O/N=C(\CCn1ccnc1)c1ccc(Cl)cc1)c1ccc(Cl)cc1 ; read by: agar diffusion ; result: 0.6439 µg/mL
O=C(OC1CCN(CC(O)(Cn2cncn2)c2ccc(F)cc2F)CC1)C(F)(F)Cl ; read by: broth dilution ; result: 2.222 µM
O=C(O/N=C(\CCn1ccnc1)c1ccccc1)c1ccccc1 ; read by: agar diffusion ; result: 0.7838 µg/mL
O=C1C=CC(=O)N1C1CCCCC1 ; strain: KKP 334 ; read by: broth dilution ; result: 1 µg/mL
CC(C)(C)C(=O)OC1CCN(CC(O)(Cn2cncn2)c2ccc(F)cc2F)CC1 ; read by: broth dilution ; result: 0.148 µM
O=C(O/N=C(\CCn1ccnc1)c1ccccc1)c1ccc(F)cc1 ; read by: agar diffusion ; result: 0.3708 µg/mL
O=C(/C=C/c1ccccc1Cl)OC1CCN(CC(O)(Cn2cncn2)c2ccc(F)cc2F)CC1 ; read by: broth dilution ; result: 0.124 µM
O/N=C(/CCn1ccnc1)c1ccc(Cl)cc1 ; read by: agar diffusion ; result: 0.5019 µg/mL
O=C1C=CC(=O)N1c1ccc([N+](=O)[O-])cc1 ; strain: KKP 334 ; read by: broth dilution ; result: 1 µg/mL
OC(Cn1cncn1)(Cn1cncn1)c1ccc(F)cc1F ; read by: agar diffusion ; result: >1.63 µg/mL
CCCCN(Cc1cn(Cc2ccccc2Br)nn1)CC(O)(Cn1cncn1)c1ccc(F)cc1F ; result: 0.5 µg/mL
C[C@@H](c1ncncc1F)[C@](O)(Cn1cncn1)c1ccc(F)cc1F ; read by: broth dilution ; result: 0.045 µM
Cc1ccc(-c2c3c(N)c4c(nc3nc3c2c(C)nn3-c2ccccc2)CCCCC4)cc1 ; strain: CCC 131 ; read by: broth dilution / absorbance ; result: 125 µg/mL
O=C1C=CC(=O)N1CCN1CCOCC1 ; strain: KKP 334 ; read by: broth dilution ; result: 64 µg/mL
Cc1ccc(-c2c3c(N)c4c(nc3nc3c2c(C)nn3-c2ccccc2)CCCC4)cc1 ; strain: CCC 131 ; read by: broth dilution / absorbance ; result: 15.6 µg/mL
O=C(O/N=C(\CCn1ccnc1)c1ccccc1)c1ccc(C(F)(F)F)cc1 ; read by: agar diffusion ; result: 0.3227 µg/mL
CN(C)CCN1C(=O)C=CC1=O ; strain: KKP 334 ; read by: broth dilution ; result: 64 µg/mL
O=C(O/N=C(\CCn1ccnc1)c1ccccc1)c1cccc(Cl)c1 ; read by: agar diffusion ; result: 0.7069 µg/mL
O=C(/C=C/c1ccc(F)cc1)OC1CCN(CC(O)(Cn2cncn2)c2ccc(F)cc2F)CC1 ; read by: broth dilution ; result: 0.129 µM
CC(C)(C)c1ccccc1N1C(=O)C=CC1=O ; strain: KKP 334 ; read by: broth dilution ; result: 1 µg/mL
CCCCN(Cc1cn(Cc2cccc([N+](=O)[O-])c2)nn1)CC(O)(Cn1cncn1)c1ccc(F)cc1F ; result: 8 µg/mL
Cc1ccc(/C(CCn2ccnc2)=N\O)cc1 ; read by: agar diffusion ; result: 0.5456 µg/mL
CC(=O)OC1CCN(CC(O)(Cn2cncn2)c2ccc(F)cc2F)CC1 ; read by: broth dilution ; result: 0.658 µM
CCCCN(Cc1cn(Cc2ccc(Cl)cc2)nn1)CC(O)(Cn1cncn1)c1ccc(F)cc1F ; result: <0.125 µg/mL

Again, the opening 2 rows:

smiles	strain	read by	result
Cc1cccc(C)c1N1C(=O)C=CC1=O	KKP 334	broth dilution	2 µg/mL
O=C(O/N=C(\CCn1ccnc1)c1ccc(Cl)cc1)c1ccc(Cl)cc1		agar diffusion	0.6439 µg/mL